Compound potency records, mixed from different reports. Data source: NIAID ChemDB in PubChem.

Common to all: growth or infection tests; species: HIV-1; measure: EC50

An empty or dashed field is not shown.

structure | changes | read by | cells | strain | result
COc1cnc2c(-n3c(C)nnc3SCC(=O)Nc3ccc(S(N)(=O)=O)cc3Cl)cccc2c1 | Y188L |  | HeLa |  | 0.372 µM
Cc1ccnc2c1NC(=O)c1cccnc1N2C1CC1 |  | cytopathic effect / MTS | MT-2 | LAI | 0.017 µM
Cc1cc(NS(=O)(=O)c2c(C(C)C)cc(C(C)C)cc2C(C)C)ccc1N1C(=O)c2ccc(Cl)cc2C1=O |  | MTT / absorbance | MT-4 | IIIB | 0.005 µM
Cc1ccc(S(=O)(=O)N2CC3(C[C@H]2C(=O)N/N=C/c2ccccc2Cl)SCCS3)cc1 |  | syncytia / visual reading | C8166 | IIIB | >404 µM
Nc1ccn([C@H]2C=C[C@@H](CO)O2)c(=O)n1 | RT-V75T 184V | plaque count | CD4+HELA + HeLa | HXB2 | 1 µM
Cc1ccc2cccnc2c1-n1c(C)nnc1SCC(=O)Nc1ccc(S(N)(=O)=O)cc1Cl |  |  | HeLa |  | 0.001 µM
Nc1ccn([C@H]2CC[C@@H](CO)O2)c(=O)n1 |  | virus yield | U-937 | LAV-1 | <0.001 µM
Cc1cc(N=Cc2ccc(Cl)cc2)ccc1N1C(=O)c2ccc(Cl)cc2C1=O |  | MTT / absorbance | MT-4 | IIIB | 0.119 µM
OC(CNCC1CCCO1)Cn1c2ccc(Br)cc2c2cc(Br)ccc21 |  | luciferase / luminescence | MT-2 | NL4-3 | 3.2 µM
Nc1ccn([C@@H]2CS[C@H](CO)O2)c(=O)n1 |  | plaque count | CEM + CEM-SS | LAI-XXBRU WT | 0.06 µM
c1ccc([C@H]2CN3CCSC3=N2)cc1 |  | XTT / p24 | H9 | IIIB | 0.1 µM
C[C@H](Cn1cnc2c(N)ncnc21)OCP(=O)(O)O | K65R | cytopathic effect / XTT / absorbance | MT-4 | NL4-3 | 11.3 µM
CC1=CC2=C(C(C)C)C(O)C(=O)/C(=C\NC(C)(C)C(=O)O)C2C(O)=C1c1c(C)cc2c(C(C)C)c(O)c(O)c(C=NC(C)(C)C(=O)O)c2c1O.[Na+].[Na+] |  | luciferase / reporter gene | TZM-bl | NL4-3 | 0.34 µM
CN(C)C=NC1=NN(C)c2ncnc3c2c1cn3[C@@H]1O[C@H](CO)[C@@H](O)[C@H]1O |  | syncytia / thymidine uptake | CEM + CEM-SS |  | 0.026 µM
Cc1cc2c(C(C)C)c(O)c(O)c(C=O)c2c(O)c1-c1c(C)cc2c(C(C)C)c(O)c(O)c(C=O)c2c1O |  | luciferase / reporter gene | TZM-bl | NL4-3 | 0.64 µM
CCCCCCCCCCCCSCC(COP(=O)([O-])OCC[N+](C)(C)C)OCCCCCCCCC(=O)OCC(=O)OC[C@H]1O[C@@H](n2cc(C)c(=O)[nH]c2=O)C[C@@H]1N=[N+]=[N-] |  | plaque count | CEM + CEM-SS | IIIB | 0.004 µM
Cc1ccnc2c1NC(=O)c1cccnc1N2C1CC1 | RT-Y181C | syncytia | CEM | IIIB-Nevirapine(0.1)(RT-Y181C) | 4.1 µg/mL
Cc1cc(NS(=O)(=O)c2ccc(Cl)cc2)ccc1N1C(=O)c2ccc(Cl)cc2C1=O |  | MTT / absorbance | MT-4 | IIIB | 0.003 µM
CC(C)Nc1cccnc1N1CCN(C(=O)c2cc3cc(NS(C)(=O)=O)ccc3[nH]2)CC1 |  | cytopathic effect | MT-4 | LZ-05.95 | 0.04 µM
CCc1cc(NCc2nc3c(Cl)ccc(Cl)c3o2)c(=O)[nH]c1C | RT-Y181C | syncytia | CEM | IIIB-Nevirapine(0.1)(RT-Y181C) | 0.84 µg/mL
CC(C)=CCOc1cc(NC(=S)c2ccoc2C)ccc1Cl | (36G)N42T N43K | luminescence | TZM-bl | NL4-3 | >2000 µM
Cc1cc(S(N)(=O)=O)ccc1NC(=O)COc1ccc(Cl)cc1C(=O)c1cc(Cl)cc(C#N)c1 | RT-G190A | β-galactosidase | MAGI | NNRTI-resistant (RT G190A) | 0.0009 µM
CCOCn1c(Cc2cc(C)cc(C)c2)c(CC)c(=O)[nH]c1=O |  | cytopathic effect / MTT / p24 | PBL | IIIB | 0.00045 µM
O=c1[nH]cnc2c1ncn2[C@H]1CC[C@@H](CO)O1 |  | flow cytometry | CEM | IIIB/LAI | 1.4 µM
Cc1cn([C@H]2C[C@H](O)[C@@](C#N)(COP(=O)(O)OP(=O)(O)OP(=O)(O)O)C2)c(=O)[nH]c1=O |  | fluorescence | PBMC |  | 2.1 µM
Cc1cn([C@H]2C[C@H](N=[N+]=[N-])[C@@H](CO)O2)c(=O)[nH]c1=O |  | p24 / RT activity | CEMx174 + CEM | RF | 0.055 µM
Cc1ccc(C(=O)Nc2ccc(N3C(=O)c4ccc(Cl)cc4C3=O)c(C)c2)cc1 |  | MTT / absorbance | MT-4 | IIIB | 0.017 µM
CCCCCCCCCCCCSCC(COP(=O)([O-])OCC[N+](C)(C)C)OCCCCCCCCO | RT mutant at codon 215 | plaque count | CEM + CEM-SS | Clinical isolate G910-6 post-AZT | 1.2 µM
CN(C)CCOc1cc2c(c3ccccc13)-c1ccccc1C2=O |  | luciferase / luminescence | MT-2 | NL4-3 | 0.83 µM
COC(=O)c1cc2c(c(OC)c1-c1ccc(N(C)C)cc1)OCO2 | L74V | antigen | C8166 | 74V | 0.44 µM
Cc1cn([C@H]2C[C@H](N=[N+]=[N-])[C@@H](CO)O2)c(=O)[nH]c1=O |  | p24 | PBMC | 7076 CLADE D CLADE D | 0.046 µM
Cc1ccc2cc(Cl)cnc2c1-n1c(C)nnc1SCC(=O)Nc1ccc(S(N)(=O)=O)cc1Cl | Y188L |  | HeLa |  | 0.1 µM
CC(C)(C)NC(=O)[C@@H]1C[C@@H]2CCCC[C@@H]2CN1C[C@@H](O)[C@H](Cc1ccccc1)NC(=O)[C@H](CC(N)=O)NC(=O)c1ccc2ccccc2n1 |  | plaque count / virus yield | MT-2 | RF | <0.004 µg/mL
Nc1nc2c(c(F)cn2C[C@H](CF)OCP(=O)(O)O)c(=O)[nH]1 |  | luciferase | TZM-bl | NL4-3 | >100 µM
Cc1cn([C@@H]2C[C@H](COP(O)(=S)OCCCCCCN)[C@@H](OP(O)(=S)OC[C@H]3OCC[C@@H]3OP(O)(=S)OC[C@H]3OCC[C@@H]3OP(O)(=S)OC[C@H]3OCC[C@@H]3OP(O)(=S)OC[C@H]3OCC[C@@H]3OP(O)(=S)OC[C@H]3OCC[C@@H]3OP(O)(=S)OC[C@H]3OCC[C@@H]3OP(O)(=S)OC[C@H]3OCC[C@@H]3OP(O)(=S)OC[C@H]3OCC[C@@H]3OP(O)(O)=S)C2)c(=O)[nH]c1=O |  | β-galactosidase / single cycle | MAGI-CCR5 |  | >1 µM
Cc1cc(N=Cc2ccccc2)ccc1N1C(=O)c2ccc(Cl)cc2C1=O |  | MTT / absorbance | MT-4 | IIIB | 0.287 µM
CC(C)[C@H](NC(=O)OCc1ccccc1)C(=O)N[C@@H](Cc1ccc(O)cc1)[C@@H](O)[C@H](O)[C@H](Cc1ccc(O)cc1)NC(=O)[C@@H](NC(=O)OCc1ccccc1)C(C)C |  | plaque count / virus yield | MT-2 | RF | <0.4 µg/mL
Fc1nc(N2CCNCC2)c(F)c(Sc2ccc(Cl)cc2)c1F |  | luciferase / luminescence | MT-2 | NL4-3 | 2 µM
CC(C)(C)NC(=O)[C@@H]1C[C@@H]2CCCC[C@@H]2CN1C[C@@H](O)[C@H](Cc1ccccc1)NC(=O)[C@H](CC(N)=O)NC(=O)c1ccc2ccccc2n1 | PR-G48V A71T V82A |  | MT-2 | RF | 0.17 µM
Cc1cn([C@H]2C[C@H](N=[N+]=[N-])[C@@H](CO)O2)c(=O)[nH]c1=O | L74V | p24 / ELISA | Primary T lymphocytes |  | 0.02 µM
FC(F)(F)c1cc(Cn2c(Br)nc3cc(Cl)c(Cl)cc32)cc(C(F)(F)F)c1 |  | plaque count / syncytia | CEM + CEM-SS | IIIB | 5.9 µM
Cc1ccnc2c1NC(=O)c1cccnc1N2C1CC1 |  | recombinant virus assay |  | HXB2 | 0.022 µM
CC(C)OC(=O)OCOP(=O)(CO[C@H](C)Cn1cnc2c(N)ncnc21)OCOC(=O)OC(C)C |  | cytopathic effect / XTT / absorbance | MT-4 | NL4-3 | <0.06 µM
Cc1ccnc2c1NC(=O)c1cccnc1N2C1CC1 | RT-Y181C | plaque count | HT4 + HT4 LacZ-1 | HXB2 | 12.6 µM
Nc1ccn([C@H]2CC[C@@H](CO)O2)c(=O)n1 | RT-L100I | syncytia | CEM | IIIB-TIBO(0.5)(RT-L100I) | 0.03 µM
Cc1ccc2ccccc2c1-n1c(C)nnc1SCC(=O)Nc1ccccc1Br | Y188L |  | HeLa |  | 0.724 µM
CC1=CC2=C(C(C)C)C(O)C(=O)/C(=C\N[C@H](C)C(=O)O)C2C(O)=C1c1c(C)cc2c(C(C)C)c(O)c(O)c(C=N[C@@H](C)C(=O)O)c2c1O.[Na+].[Na+] |  | luciferase / reporter gene | TZM-bl | NL4-3 | 0.16 µM
O=C(/C=C/c1ccc(O)c(O)c1)O[C@@H]1C[C@](OC(=O)/C=C/c2ccc(O)c(O)c2)(C(=O)O)C[C@@H](O)[C@H]1O |  | cytopathic effect / neutral red | MT-2 | LAI | 25 µM
CNc1ccc(Cl)cc1S(=O)(=O)c1ccccc1[N+](=O)[O-] |  | XTT | CEM + CEM-SS | IIIB | 0.08 µM
O=C(NCc1c(F)cc(F)cc1F)c1cn2c(c(O)c1=O)C(=O)N1C3CCC(CC3)O[C@@H]1C2 |  | ATP | MT-4 | IIIB | 0.0025 µM
Nc1nc2cc(Cl)c(Cl)cc2n1Cc1ccc(Cl)cc1 |  | plaque count / syncytia | CEM + CEM-SS | IIIB | 10 µM
Nc1ccn([C@@H]2CS[C@H](CO)O2)c(=O)n1 | M184V | p24 / ELISA | Primary T lymphocytes |  | >10 µM
CC(C)[C@H](NC(=O)OCc1ccccc1)C(=O)N[C@@H](Cc1ccccc1)[C@@H](O)[C@H](O)[C@H](Cc1ccccc1)NC(=O)[C@@H](NC(=O)OCc1ccccc1)C(C)C |  | plaque count / virus yield | MT-2 | RF | <0.09 µg/mL
Cc1cn([C@H]2C=C[C@@H](CO)O2)c(=O)[nH]c1=O | M184V | p24 / ELISA | Primary T lymphocytes |  | 0.6 µM
Clc1ccc(Cn2c(Br)nc3cc(Cl)c(Cl)cc32)cc1Cl |  | plaque count / syncytia | CEM + CEM-SS | IIIB | >100 µM
CCNc1cccnc1N1CCN(C(=O)c2cc3cc(OC)ccc3[nH]2)CC1 |  | syncytia | CEM | IIIB | 0.03 µg/mL
Cc1cn([C@H]2C[C@H](N=[N+]=[N-])[C@@H](CO)O2)c(=O)[nH]c1=O |  | plaque count / syncytia | CEM + CEM-SS | G-762/G-910 (AZT-RS) | >10 µM
Cc1cc(NC(=O)c2ccc(Cl)cc2)ccc1N1C(=O)c2ccc(Cl)cc2C1=O |  | MTT / absorbance | MT-4 | IIIB | 0.022 µM

ECn is the concentration giving n% inhibition of infection, replication or growth. Lines come from different laboratories, so protocols vary.